{"source": "patent US20070276049A1", "about": "(priority 2003, published 2007)", "test_system": "human T cells", "format": "cell-based", "conditions": "T cells plus GML (15 μg/ml) plus TSST-1 (10 μg/ml)", "data": [{"smiles": "CCCCCCCCCCCC(=O)OCC(O)CO", "note": "(stereo not shown) [GML, glycerol monolaurate]", "values": [{"measurement": "Counts/min (incorporation of 3H-thymidine into DNA)", "result": "5,500 Counts/min"}]}]}
